Reference: US20110274702A1 (INSTITUTE FOR RESEARCH IN BIOMEDICINE, published 2011)

Columns and labels:
H5-HA = H5-HA (influenza A virus, H5 subtype); assay: ELISA on coated recombinant HA
H7-HA = H7-HA (influenza A virus, H7 subtype); assay: ELISA on coated recombinant HA

B1: FI6 variant 2 (antibody, V domains shown)
VH: QVQLVQSGGGVVQPGRSLRLSCVASGFTFSTYAMHWVRQAPGRGLEWVAVISYDGNYKYYADSVKGRFSISRDNSNNTLHLEMNTLRTEDTALYYCAKDSQLRSLLYFEWLSQGYFDPWGQGTLVTVTS
VL: DIQMTQSPDSLAVSLGARATINCKSSQSVTFNYKNYLAWYQQKPGQPPKVLIYWASARESGVPDRFSGSGSGTDFTLTISSLQAEDVAVYYCQQHYRTPPTFGQGTKVEIK
In the case of B1, the EC50 (H5-HA) is reported as 0.0145 µg/mL and the EC50 (H7-HA) is reported as 0.0314 µg/mL.
